From article PMC9342713

Target: T1, DitR (Stenotrophomonas maltophilia K279a) (UniProt B2FL17)
T1 sequence (looked up): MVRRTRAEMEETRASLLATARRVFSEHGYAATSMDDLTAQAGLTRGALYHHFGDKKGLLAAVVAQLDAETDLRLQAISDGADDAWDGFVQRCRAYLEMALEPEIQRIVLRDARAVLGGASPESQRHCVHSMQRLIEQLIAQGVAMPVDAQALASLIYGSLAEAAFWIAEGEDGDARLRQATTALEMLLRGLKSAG
Assay: EMSA
Conditions: 50 nM DitR, 0 mM diamide; recombinant protein; residues 1-195; protein details: 6xHis (pETBlue-2, NcoI/XhoI); label: 32P (primer-labeled); probe letters rebuilt from the primers and the genome

## GGGGGCGGCGAACAGGTCGCGGTAGGGGGTGGCCATCGGGATCTCCAGGGCAGCGGCTTGCCTGGCGCTCCCGGCGCCACGACAATACATACAGAGCGTATGAATAAGAGCCTACATTCATACGCGTCGTATGTAAATAATCATGCACTGCGTATGTAAGGAGCTCCGGATGGTCCGTCGCACCCGCGCCGAAATGGAAGAAAC (double strand) [mfsBC promoter fragment, 204 bp]
  binding result: binds

The exact form of at least one protein or probe is not confirmed. At least one verdict rests on a figure or table, not on a statement of the authors. Where a protein sequence is shown, tags need not be part of it.
